Assay results published in patent US9822155B2 (priority 2013, dated 2017).

By UniProt entry, the sequences of proteins in these tests, tags left out.
UniProt C3W5S1, entry or part of it, added parts left off: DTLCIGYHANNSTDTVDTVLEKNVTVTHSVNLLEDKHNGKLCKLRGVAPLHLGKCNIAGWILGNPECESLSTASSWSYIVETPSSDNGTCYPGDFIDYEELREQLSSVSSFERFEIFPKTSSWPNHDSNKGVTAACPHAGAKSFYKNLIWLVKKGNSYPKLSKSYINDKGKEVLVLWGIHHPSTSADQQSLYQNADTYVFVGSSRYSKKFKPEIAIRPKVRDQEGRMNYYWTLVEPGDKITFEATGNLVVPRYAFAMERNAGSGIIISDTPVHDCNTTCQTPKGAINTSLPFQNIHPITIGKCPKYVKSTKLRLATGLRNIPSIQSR

How the values were obtained:
H1N1 viral HA = H1N1 viral HA (Influenza A virus, UniProt C3W5S1); test: Binding to viral protein HA by Western blot and ELISA; details: Western blot (P9 50 μg/ml) and ELISA
H1N1 viral NA = test: Binding to viral protein NA by Western blot and ELISA; details: Western blot (P9 50 μg/ml) and ELISA
[1] = system: influenza A virus subtypes H3N2, H5N1, H7N7 and H7N9; test: Plaque assay against other influenza A subtypes in MDCK cells

Structure (SMILES): CC[C@H](C)[C@H](NC(=O)[C@H](C)NC(=O)CNC(=O)[C@@H](N)CC(N)=O)C(=O)N[C@@H](CS)C(=O)N[C@@H](Cc1c[nH]c2ccccc12)C(=O)NCC(=O)N1CCC[C@H]1C(=O)N[C@@H](CS)C(=O)N1CCC[C@H]1C(=O)N[C@H](C(=O)N[C@@H](C)C(=O)N[C@@H](Cc1ccccc1)C(=O)N[C@@H](CCCNC(=N)N)C(=O)N[C@@H](CCC(N)=O)C(=O)N[C@H](C(=O)NCC(=O)N[C@@H](CC(N)=O)C(=O)N[C@@H](CS)C(=O)NCC(=O)N[C@@H](Cc1c[nH]cn1)C(=O)N[C@@H](Cc1ccccc1)C(=O)N[C@@H](CCCCN)C(=O)N[C@H](C(=O)N[C@@H](CCCNC(=N)N)C(=O)N[C@@H](CS)C(=O)N[C@@H](CS)C(=O)N[C@@H](CCCCN)C(=O)N[C@H](C(=O)N[C@@H](CCCNC(=N)N)C(=O)O)[C@@H](C)CC)C(C)C)[C@@H](C)CC)[C@@H](C)O [Peptide P9]
- binding to viral surface glycoprotein HA (H1N1 viral HA): bound to viral surface glycoprotein HA
- binding to NA (H1N1 viral NA): could not bind to NA
- antiviral efficacies against other influenza A subtypes [1]: strong antiviral efficacies
- inhibition of virus replication and release (viral loads in cells and supernatants) (H1N1 virus; P9 25 μg/ml maintained in culture media after infection, 0.3 MOI (P9-maint)): no significant inhibitory effects
- virus infection (viral loads in cells and supernatants) (H1N1 virus; cells pretreated with P9 25 μg/ml for 1 hour, 0.3 MOI (P9-cell-pre)): not inhibited
- viral loads inside the cells and in culture supernatants (H1N1 virus; virus 0.3 MOI pretreated with P9 25 μg/ml for 1 hour (P9-virus-pre)): significantly reduced
